This is a selection; strong and weak results do not stand in their true shares. Calls of active or inactive are those of the source.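 The calls were made as follows: active = inhibition above the mean of all tested compounds plus 3 SD, set per campaign (cut at about 35% in these data); inactive = the rest.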
Test system: Hepatitis C virus NS3 helicase
Assay: HCV NS3 DNA unwinding blockers – biochemical, Cy5 molecular beacon fluorescence, primary screen (AID 1800);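 also: 0% = DMSO wells and 100% = thioflavine S control wells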
Conditions: at 10.9 µM, stronger effect = higher value
Method in brief: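 Measured by: Cy5 fluorescence, 0 and 60 min reads / Assay system: NS3 helicase fragment of HCV / Control set: low DMSO, high thioflavine S at 110 µM / Times: 1 h reaction at 25 °C, ATP-initiated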

Structure (SMILES)	inhibition
CC(=O)Nc1ccc(Oc2c([N+](=O)[O-])cc([N+](=O)[O-])cc2[N+](=O)[O-])cc1	inactive: -0.44%
CC(=O)Nc1ccc([As](=O)(O)O)c(O)c1	inactive: -4.3%
CC(=O)c1ccc(N2CC2c2ccncc2)cc1 (configuration not stated)	inactive: -8.72%
CC(C)(C)C(=O)NC(Sc1ccccc1)C(Cl)(Cl)Cl (configuration not stated)	inactive: -3.5%
CCOc1ccc(C2=NCC(CBr)S2)cc1 (configuration not stated)	inactive: -40.2%
O=P1(Nc2nc3ccc(Cl)cc3s2)COc2ccccc2O1 (configuration not stated)	inactive: 1.32%
CN(C)C(=O)Oc1noc2ccccc12	inactive: -1.45%
O=c1c2cc([N+](=O)[O-])ccc2[nH]c2c([N+](=O)[O-])cc([N+](=O)[O-])cc12	inactive: 8.28%
Cc1ccccc1OP(=O)(Nc1ccccn1)Oc1ccccc1C	inactive: -1.54%
Cc1ccc(OP(=O)(Nc2ccccn2)Oc2ccc(C)cc2)cc1	inactive: 4.67%
CC(=O)NC(SC(=S)N(CC(C)C)CC(C)C)C(Cl)(Cl)Cl (configuration not stated)	inactive: 9.4%
COC(=O)c1cc2c(s1)N=C(c1ccccc1)N(C)P2(=O)N1CCOCC1 (configuration not stated)	inactive: 5.24%
CCC(=O)N1C2C3N(C(=O)CC)C1C1N(C(=O)CC)C(C(N1C(=O)CC)N3C(=O)CC)N2C(=O)CC	inactive: 5.13%
O=C(OC1CN2CCC1CC2)c1ccccc1 (configuration not stated)	inactive: 8.4%
O=C(NC1CCS(=O)(=O)C1)NP(=S)(Oc1ccccc1)Oc1ccccc1 (configuration not stated)	inactive: -5.79%
CCNC(=S)/N=C(\N)N[N+](=O)[O-]	inactive: -2.78%
CCOC(=O)NC(Sc1ccccc1)C(Cl)(Cl)Cl (configuration not stated)	inactive: -2.23%
Cc1ccc(NP(=O)(Oc2cccc(C)c2)Oc2cccc(C)c2)nc1	inactive: 9.48%
c1ccc(-c2nn[nH]n2)c(-c2nn[nH]n2)c1	inactive: -2.48%
Nc1ccc([As](=O)(O)c2ccc([N+](=O)[O-])cc2)cc1	inactive: -5.14%
C(Cc1nn[nH]n1)Cc1nn[nH]n1	inactive: -9.12%
O=C(OC1CN2CCC1CC2)c1cccc(Cl)c1 (configuration not stated)	inactive: -4.41%
O=[N+]([O-])c1ncn(CCn2cnc([N+](=O)[O-])n2)n1	inactive: 18%
CC(=O)NC(SC(=S)N(C)C)C(Cl)(Cl)Cl (configuration not stated)	inactive: -9.21%
O=[N+]([O-])c1ccc(O)c(/C=N/Nc2ccc([N+](=O)[O-])cc2[N+](=O)[O-])c1	inactive: -11.9%
O=[As](O)(c1ccccc1)c1ccc(O)cc1	inactive: 3.46%
O=P(Nc1nc2ccccc2s1)(c1ccccc1)c1ccccc1	inactive: 7.46%
